Anti-infective test results gathered from many reports (values: NIAID ChemDB through PubChem).

All rows: tests in culture; agent: Mycobacterium tuberculosis

Rows are shuffled and stem from different studies.

structure,strain or isolate,cells,method,setting,dose,measure,result
O=C(NCc1cccnc1)c1cc(Cl)ccc1O,H37Rv,-,-,21 d,-,MIC,500 µM
Cc1ccc(S(=O)(=O)NCCNCCO)cc1,H37Rv,-,resazurin,-,6.25 µg/mL,inhibition,-29%
Nc1ncnc2c1cnn2Cc1cn(COC[C@@H](O)CO)nn1,H37Rv,-,BACTEC,-,12.5 µg/mL,inhibition,0%
CCCCCCCCCCCCCCCCNCc1cccnc1,Sensitive strains,-,-,-,-,MIC,3.12 µg/mL
CC(=O)Nc1ccc(C(N)=S)cc1,H37Rv,-,-,-,-,MIC,512 µM
CC1CN(Cc2cc(C(C)(C)c3cc(Cl)c(O)c(CN4CC(C)OC(C)C4)c3)cc(Cl)c2O)CC(C)O1,H37Rv,-,resazurin,-,-,MIC bound,>6.25 µg/mL
CCCCCC/C=C/c1ccc2c(c1)C(=O)c1nc3ccncc3c(=O)n1-2,H37Rv,-,-,-,-,MIC,0.06 µg/mL
NC(=S)c1ccc([N+](=O)[O-])cc1,H37Rv (INH-resistant),-,-,-,-,MIC,1024 µM
S=C(S)n1nc(-c2ccccc2)c(N=Nc2cccc(Cl)c2)c1-c1ccccc1,H37Rv,-,BACTEC,-,-,MIC bound,>12.5 µg/mL
Nc1ccc(C(=O)N/N=C/c2ccc([N+](=O)[O-])cc2)cc1,H37Rv,-,-,-,-,EC50,>12.5 µg/mL
CC1C(=O)N(C)c2ccc(C(=O)CN3CCN(c4noc5cc(Cl)ccc45)CC3)cc21,H37Rv,-,visual reading / absorbance,-,-,MIC,1.56 µg/mL
Cc1cc(C(N)=S)ccn1,H37Rv (drug-susceptible),-,-,-,-,MIC,64–128 µM
OC[C@H](O)COCn1cc(Cn2ncc3c(NCc4ccccc4)ncnc32)nn1,H37Rv,-,BACTEC,-,12.5 µg/mL,inhibition,0%
COc1cc2c(cc1OC)CN1CCc3cc(OC)c(OC)cc3C1C2,H37Rv,-,BACTEC,-,-,MIC,128 µg/mL
c1ccc(-c2cc(N3CCCCC3)nc3nc(N4CCCCC4)ccc23)cc1,H37Rv,VERO,-,-,6.25 µg/mL,inhibition,99%
COc1ccc(C(N)=S)cc1,H37Rv,-,-,-,-,MIC,64 µM
CO[C@H]1/C=C/O[C@@]2(C)Oc3c(C)c(O)c4c(O)c(c5c(c4c3C2=O)NC2(CCN(CC(C)C)CC2)N=5)=NC(=O)/C(C)=C\C=C\[C@H](C)[C@H](O)[C@@H](C)[C@@H](O)[C@@H](C)[C@H](OC(C)=O)[C@@H]1C,H37RV (RIF-S),-,-,-,-,MBC,0.25 µg/mL
O=C(Oc1cc(Cl)ccc1C(=O)Nc1ccc(C(F)(F)F)cc1)c1cnccn1,multidrug resistant 9449/2006,-,-,21 d,-,MIC,0.25 µM
CCCCCCCCNC(CCO)c1cccc([N+](=O)[O-])c1,H37Ra,-,-,-,-,MIC,<25 µg/mL
c1ccc(-c2cc3ccc(N4CCNCC4)nc3nc2N2CCCCC2)cc1,H37Rv,-,-,-,-,MIC,>6.25 µg/mL
COc1ncnc2c1cnn2COC[C@@H](O)CO,H37Rv,-,BACTEC,-,-,EC50,>12.5 µg/mL
COCC(=O)OC1CCn2c1nc1c2C(=O)C(C)=C(NC(C)=O)C1=O,H37Rv,-,BACTEC,-,-,MIC bound,>12.5 µg/mL
O=C1c2cc(F)ccc2-n2c1nc1ccccc1c2=O,H37Rv,-,-,-,-,MIC,0.13 µg/mL
COc1ccc2c(-c3ccccc3)cc(N3CCN(c4ccccc4)CC3)nc2n1,H37Rv,-,-,-,6.25 µg/mL,inhibition,86%
NCC[C@H](O)C(=O)N[C@@H]1C[C@H](N)[C@@H](O[C@H]2O[C@H](CN)[C@@H](O)[C@H](O)[C@H]2O)[C@H](O)[C@H]1O[C@H]1O[C@H](CO)[C@@H](O)[C@H](N)[C@H]1O,H37Ra,-,-,-,-,Median MIC,0.63 µg/mL
NNC(=O)c1cccnc1,H37Rv (INH-resistant),-,-,-,-,MIC,4096 µM
c1ccc(-c2cc(N3CCOCC3)nc3nc(N4CCOCC4)ccc23)cc1,H37Rv,-,-,-,-,MIC,>6.25 µg/mL
O=C(NCc1ccccn1)c1cc(Cl)ccc1O,H37Rv,-,-,14 d,-,MIC,125 µM
O=C(Oc1ccc(Cl)cc1C(=O)Nc1ccc(C(F)(F)F)cc1)c1cnccn1,extensively drug resistant Praha 131,-,-,21 d,-,MIC,0.125 µM
O=C(NCc1cccnc1)c1ccc(Cl)cc1O,H37Rv,-,-,21 d,-,MIC,250 µM
CN1C(=O)Cc2cc(C(=O)CN3CCN(c4noc5cccc(Cl)c45)CC3)ccc21,H37Rv,-,visual reading / absorbance,-,-,MIC,12.5 µg/mL
C#CCn1ncc2c(Cc3ccccc3)ncnc21,H37Rv,-,BACTEC,-,12.5 µg/mL,inhibition,90%
Nc1ccc(C(=O)N/N=C/c2ccc([N+](=O)[O-])o2)cc1,H37Rv,-,-,-,-,MIC,>12.5 µg/mL
Cc1c(NC(=O)CSC(=S)N2CCN(Cc3ccccc3)CC2)c(=O)n(-c2ccccc2)n1C,H37Rv,-,BACTEC,-,12.5 µg/mL,inhibition,0%
C[C@@H]1CN(c2c(F)c(N)c3c(=O)c(C(=O)O)cn(C4CC4)c3c2F)C[C@H](C)N1,H37Ra,-,-,-,-,Mean MIC,0.047 µg/mL
Cc1cccc(C(=O)NCc2ccccn2)c1O,H37Rv,-,-,21 d,-,MIC,62.5 µM
NC[C@@H]1O[C@H](O[C@H]2[C@@H](O)[C@H](O[C@@H]3[C@@H](O)[C@H](N)C[C@H](N)[C@H]3O[C@H]3O[C@H](CO)[C@@H](O)[C@H](O)[C@H]3N)O[C@@H]2CO)[C@H](N)[C@@H](O)[C@@H]1O,H37Rv,-,-,-,-,Mean MIC,2.25 µg/mL
CN1C(=O)Cc2cc(C(=O)CN3CCN(c4ccc([N+](=O)[O-])cc4)CC3)ccc21,H37Rv,-,visual reading / absorbance,-,-,MIC,12.5 µg/mL
C[n+]1ccc(Nc2ccc(NC(=O)c3ccc(Nc4cc[n+](C)c5ccc([N+](=O)[O-])cc45)cc3[N+](=O)[O-])cc2)cc1,H37Rv,-,resazurin,-,-,MIC bound,<6.25 µg/mL
CCCCCCCCCCCCCCCCNCc1ccc(Cl)cc1,H37Ra,-,-,-,-,MIC,<25 µg/mL
CCCCCCCCS(=O)(=O)CC(N)=O,TBL54 EP066,-,-,-,-,MIC,≤6.25 µg/mL
O=C(NCc1ccccn1)c1cc(F)ccc1O,H37Rv,-,-,21 d,-,MIC,1000 µM
CCCCCCCCC=CCCCCCCCCNCc1ccc(Cl)cc1,H37Ra,-,-,-,-,MIC,>25 µg/mL
COc1cccc2c(=O)n3c(nc12)C(=O)c1cc(I)ccc1-3,H37Rv,-,-,-,-,MIC,0.03 µg/mL
CN(C)c1ccc(C(N)=S)cc1,H37Rv (drug-susceptible),-,-,-,-,MIC,128 µM
CCN(CC)CCNc1ccc(C)c2sc3ccc(N)cc3c(=O)c12,H37Rv,VERO,BACTEC,-,-,MIC,6.25 µg/mL
O=C(Oc1ccc(Cl)cc1C(=O)Nc1cccc(C(F)(F)F)c1)c1cnccn1,multidrug resistant Praha 1,-,-,14 d,-,MIC,1 µM
CCCCOCCN1CCN(CCCN2c3ccccc3Sc3ccc(C(F)(F)F)cc32)CC1.Cl.Cl,H37Rv,-,BACTEC,-,-,MIC bound,≤12.5 µg/mL
CCCCCCCCNC(CC(=O)OCC)c1cccc(Cl)c1,H37Ra,-,-,-,-,MIC,>25 µg/mL
OC[C@H](O)COCn1ncc2c(NCc3ccccc3)ncnc21,H37Rv,-,BACTEC,-,12.5 µg/mL,inhibition,0%
CCN1C(=O)C(C)c2cc(C(=O)CN3CCN(c4noc5ccccc45)CC3)ccc21,H37Rv,-,visual reading / absorbance,-,-,MIC,1.56 µg/mL
CCCCCCCCc1ccc2c(c1)C(=O)c1nc3ccncc3c(=O)n1-2,TN1037RFLP:H (DRUG sensitive),-,-,-,-,MIC,≤0.015 µg/mL
C=C/C(C)=C/[C@@]1(C)SC(=O)C(C)=C1O,H37Rv,-,-,-,-,MIC,2.5 µg/mL
CC(=O)NC1=CC(=O)C=CC1=Nc1ccc(N(C)C)cc1,H37Rv,-,BACTEC,-,12.5 µg/mL,inhibition,95%
CC(=O)/C(N=Nc1ccc(C(=O)N/N=C/c2ccc(N(C)C)cc2)cc1)=C(\C)O,H37Rv,-,-,-,12.5 µg/mL,inhibition,25%
CCCCCc1cc(OC)c2ccccc2n1,MT2,-,-,-,-,MIC,42 µg/mL
Nc1o[nH]c(=O)c1C1CCCCC1,H37Rv,-,BACTEC,-,12.5 µg/mL,inhibition,11%
COc1ccc(CCc2cc(OC)c3ccccc3n2)cc1OC,MT9,-,-,-,-,MIC,50 µg/mL
CCSc1ncnc2c1cnn2COC[C@@H](O)CO,H37Rv,-,BACTEC,-,12.5 µg/mL,inhibition,0%
O=C(N1CCCCC(Cl)(Cl)C1=O)C(Cl)(Cl)Cl,H37Rv,-,BACTEC,-,12.5 µg/mL,inhibition,14%
O=C(Oc1ccc(Br)cc1C(=O)Nc1ccc(C(F)(F)F)cc1)c1cnccn1,multidrug resistant 53/2009,-,-,14 d,-,MIC,0.5 µM
O=C(NC(=O)C1(C(=O)O)CCCC1)Nc1ccccc1,H37Rv,-,BACTEC,-,-,MIC bound,>12.5 µg/mL
COC(OC)c1ccc2c(c1)C(=O)c1nc3ccncc3c(=O)n1-2,H37Rv,-,-,-,-,MIC,0.13 µg/mL
CC1C(=O)OCN1S(=O)(=O)C(C)(C)C,H37Rv,-,BACTEC,-,-,MIC bound,>12.5 µg/mL
CCCCCCCCC=CCCCCCCCCNCc1ccc(OC)c(OC)c1,H37Ra,-,-,-,-,MIC,<25 µg/mL
CN1CCN(c2ccc3c(=O)n4c(nc3c2)C(=O)c2cc(F)ccc2-4)CC1,H37Rv,-,-,-,-,MIC,0.13 µg/mL
Clc1ccc2c(-c3ccccc3)cc(N3CCN(c4ccccc4)CC3)nc2n1,H37Rv,-,-,-,-,MIC,>6.25 µg/mL
O=c1[nH]cnc2c1cnn2Cc1cn(COC[C@@H](O)CO)nn1,H37Rv,-,BACTEC,-,12.5 µg/mL,inhibition,0%
O=C(Oc1ccc(Cl)cc1C(=O)Nc1ccc(Cl)c(Cl)c1)c1cnccn1,H37Rv 331/88,-,-,21 d,-,MIC,1 µM
O=C(NCc1ccccc1)c1cc(Cl)cc(Cl)c1O,H37Rv,-,-,21 d,-,MIC,62 µM
C=C1C(=O)O[C@H]2/C=C(/C)C(=O)C[C@@H]3OC(C)(C)O[C@@]3(C)C[C@H](OC(=O)/C(C)=C\C)[C@H]12,H37Rv,-,BACTEC,-,-,MIC,≥12.5 µg/mL
NNC(=O)c1ccccn1,H37Rv (INH-resistant),-,-,-,-,MIC,512 µM
CCC(C)OC(=O)N1CCN(c2ccc3cc(-c4ccccc4)c(N4CCCCC4)nc3n2)CC1,H37Rv,-,-,-,-,MIC,6.25 µg/mL
COC12CC(=O)C(C(C)=O)=C(O)C1(C)c1c(OC(C)=O)c(C)c(O)c(C(C)=O)c1O2,H37Rv,-,BACTEC,-,12.5 µg/mL,inhibition,-9%
O=C1c2cc(I)ccc2-n2c1nc1ncccc1c2=O,H37Rv,-,-,-,-,MBC,4 µg/mL
CC1COc2c(N3CCN(C)CC3)c(F)cc3c(=O)c(C(=O)O)cn1c23,H37Ra,-,-,-,-,Median MIC,0.75 µg/mL
Cc1ccc(-c2cc(CN3CCSCC3)c(C)n2-c2ccc(F)cc2)cc1,H37Rv,-,-,-,-,MIC,0.5 µg/mL
NC(=S)c1ccc(N)cc1,H37Rv (drug-susceptible),-,-,-,-,MIC,256 µM
N[C@@H]1CONC1=O,H37Rv,-,-,-,-,Mean MIC,28.13 µg/mL
Oc1ccccc1CNCCCCCNCc1ccccc1O,Sensitive strains,-,-,-,-,MIC,25 µg/mL
O=C(NCCCOC(=O)CCCCCCCCC(=O)OCCCNC(=O)NC(=O)c1c[nH]c(=O)[nH]c1=O)NC(=O)c1c[nH]c(=O)[nH]c1=O,H37Rv,-,BACTEC,-,-,MIC bound,>12.5 µg/mL
CSc1ncnc2c1cnn2COC[C@@H](O)CO,H37Rv,-,BACTEC,-,-,EC50,>12.5 µg/mL
CC(=O)/C(N=Nc1ccc(C(=O)N/N=C/c2ccncc2)cc1)=C(\C)O,H37Rv,-,-,-,-,EC50,>12.5 µg/mL
O=C(NCc1cccnc1)c1cc(Br)cc(Br)c1O,H37Rv,-,-,21 d,-,MIC,250 µM
NNC(=O)c1ccncc1,Isolate S0,-,-,-,-,MIC,0.031 µg/mL
CCOc1ccc(-n2c(=O)c(N=Nc3ccccc3Cl)c(O)n(-c3ccc(Br)cc3)c2=S)cc1,H37Rv,-,BACTEC,-,-,MIC,0.8 µg/mL
Nc1ccc(C(=O)O)c(O)c1,H37Ra,-,-,-,-,Median MIC,1.5 µg/mL
O=C(NCc1ccccc1)c1ccc(Cl)cc1O,H37Rv,-,-,14 d,-,MIC,62 µM
CCCCCCCCc1ccc2nc3n(c(=O)c2c1)-c1ccccc1C3=O,H37Rv,-,-,-,-,MIC,4 µg/mL
CCCCCCCCC=CCCCCCCCCNCc1ccccc1O,H37Ra,-,-,-,-,MIC,<25 µg/mL
CCN(CC)CCNc1cc2c(c3c(=O)c4ccccc4sc13)CCCC2,H37Rv,-,BACTEC,-,-,MIC,12.5 µg/mL
Cc1cccc(C(=O)NCc2cccnc2)c1O,H37Rv,-,-,14 d,-,MIC,250 µM
CCN(CC)C(=S)SCCC(N)=O,H37Rv,-,BACTEC,-,-,MIC bound,>128 µg/mL
O=[N+]([O-])c1cc2cc(-c3ccccc3)c(N3CCCCC3)nc2nc1N1CCCCC1,H37Rv,-,-,-,-,MIC,>6.25 µg/mL

6 of the rows above, restated:

structure,strain or isolate,cells,method,setting,dose,measure,result
Cc1ccc(S(=O)(=O)NCCNCCO)cc1,H37Rv,-,resazurin,-,6.25 µg/mL,inhibition,-29%
COC(OC)c1ccc2c(c1)C(=O)c1nc3ccncc3c(=O)n1-2,H37Rv,-,-,-,-,MIC,0.13 µg/mL
O=C(Oc1ccc(Cl)cc1C(=O)Nc1ccc(C(F)(F)F)cc1)c1cnccn1,extensively drug resistant Praha 131,-,-,21 d,-,MIC,0.125 µM
CCC(C)OC(=O)N1CCN(c2ccc3cc(-c4ccccc4)c(N4CCCCC4)nc3n2)CC1,H37Rv,-,-,-,-,MIC,6.25 µg/mL
O=c1[nH]cnc2c1cnn2Cc1cn(COC[C@@H](O)CO)nn1,H37Rv,-,BACTEC,-,12.5 µg/mL,inhibition,0%
O=C(Oc1ccc(Cl)cc1C(=O)Nc1ccc(Cl)c(Cl)c1)c1cnccn1,H37Rv 331/88,-,-,21 d,-,MIC,1 µM

a–b is a range or a potency band. MIC bound comes from a single tested concentration. ECn: concentration that inhibits the pathogen or its effect by n%. Blank or dashed fields: not listed here. Percent inhibition refers to the dose given; in toxicity tests it is the harm to the cells.